Measured data: PubChem BioAssay AID1259414 (Drosophila RNAi Screening Center, 2018)
Purpose: 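Host factors increasing or decreasing Wolbachia levels in cultured fly cells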 (primary screen). System: Drosophila JW18 cells infected with Wolbachia. Knock-down reagent: long dsRNA against Drosophila genes, 0.25 µg dsRNA per well of a 384-well plate. Time to read-out: 5 days. Treatment: cells persistently infected with Wolbachia before knock-down; no added drug. Measured: 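Imaged fluorescence in situ signal for Wolbachia 23S rRNA per DAPI-counted host cell, given as a robust z-score within each plate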. Reading the numbers: Wolbachia per cell robust z: higher = more Wolbachia per host cell than the plate typical. Hit rule: 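Hit when robust z is 1.5 or more, or -1.5 or less, in at least two of three replicates; excludes dsRNAs with several or no targets, genes not expressed in JW18 and well A1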.
In all, the deposit lists about 24,000 reagents; shown is a random part of those with a known target gene and a result. Of all reagents, about 1,210 (5%) were called active. 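Inactive calls also include excluded dsRNAs with several or no targets, genes unexpressed in JW18, and well A1, regardless of score.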 A plus sign joins genes that one reagent is predicted to hit.

gene | amplicon | Wolbachia per cell robust z, rep 1 | Wolbachia per cell robust z, rep 2 | Wolbachia per cell robust z, rep 3 | outcome
Mst33A | DRSC03371 | -2.24 | 0.86 | 1.88 | inactive
Mst33A | DRSC27156 | 0.371 | 0.404 | -5.72 | inactive
MED17 (Mediator complex subunit 17) | DRSC16889 | -1.83 | 0.324 | -2.67 | active
Gpdh1 (Glycerol-3-phosphate dehydrogenase 1) | DRSC03336 | -0.108 | 1.56 | 0.0872 | inactive
Gpdh1 (Glycerol-3-phosphate dehydrogenase 1) | DRSC21666 | 0.017 | -0.17 | -0.826 | inactive
Prosalpha6T (Proteasome alpha6 subunit, Testis-specific) | DRSC02873 | 1.39 | -1.31 | 1.08 | inactive
CG43188 | DRSC40536 | 0.379 | 0.238 | 0.986 | inactive
ap (apterous) | DRSC04917 | -5.5 | 0.794 | -2.26 | active
mEFG1 (mitochondrial translation elongation factor G 1) | DRSC02758 | 0.314 | 0.472 | 2.17 | inactive
CG14817 | DRSC18547 | -0.203 | -0.0941 | 0.0766 | inactive
CG15093 | DRSC06522 | -0.059 | -0.909 | -0.542 | inactive
CG15093 | DRSC24576 | 1.47 | 1.19 | -4.9 | inactive
CG9121 | DRSC03142 | 0.209 | -0.296 | 0.293 | inactive
AIMP3 (aaRS-interacting multifunctional protein 3) | DRSC04500 | 1.32 | 0.488 | 0.474 | inactive
AIMP3 (aaRS-interacting multifunctional protein 3) | DRSC26724 | 0.542 | -1.65 | 0.488 | inactive
CG15368 | DRSC23291 | -1.44 | -1.7 | -0.244 | inactive
CG15368 | DRSC25848 | 0.302 | -0.111 | -0.355 | inactive
Hsp23 (Heat shock protein 23) | DRSC11188 | 0.402 | -0.243 | 0.0698 | inactive
Hsp23 (Heat shock protein 23) | DRSC29302 | 1.83 | 0.233 | 0.764 | inactive
CG12121 | DRSC17816 | -1.59 | -0.307 | -1.93 | active
Rpt3R (Regulatory particle triple-A ATPase 3-related) | DRSC16501 | 0.706 | -2.57 | 1.01 | inactive
Rpt3R (Regulatory particle triple-A ATPase 3-related) | DRSC25067 | 0.993 | 1.51 | 1.29 | inactive
gro (groucho) | DRSC16962 | -4.25 | 1.36 | -0.245 | inactive
gro (groucho) | DRSC40786 | -0.24 | 0.149 | -0.291 | inactive
Elp6 (Elongator complex protein 6) | DRSC16571 | 0.318 | 0.865 | 0.084 | inactive
sle (slender lobes) | DRSC14557 | 0.114 | 0.28 | 0.0125 | inactive
CG17633 | DRSC02631 | 1.23 | 0.644 | -4.7 | inactive
CG17633 | DRSC29709 | -1.03 | 1.09 | -0.152 | inactive
CG33768 | DRSC11715 | -0.249 | 0.00931 | -0.532 | inactive
CG33107 | DRSC21898 | -0.713 | -0.278 | -1.54 | inactive
Eig71Ed (Ecdysone-induced gene 71Ed) | DRSC11151 | 0.46 | -0.199 | 0.0976 | inactive
Tmem18 (Transmembrane protein 18) | DRSC27312 | 0.407 | -0.643 | 0.083 | inactive
flw (flapwing) | DRSC17992 | -3.9 | -2.71 | -5.15 | inactive
flw (flapwing) | DRSC18774 | 1.08 | 1.03 | -1.54 | inactive
flw (flapwing) | DRSC25161 | 0.813 | 1.38 | 0.655 | inactive
CG4306 | DRSC10409 | 1.06 | 1.02 | 1.06 | inactive
CG4306 | DRSC28986 | -0.471 | -2.01 | -0.276 | inactive
Ns3 (Nucleostemin 3) | DRSC18607 | 0.604 | -0.0254 | 0.152 | inactive
Ns3 (Nucleostemin 3) | DRSC25847 | -0.859 | -0.224 | -1.52 | inactive
CG14459 | DRSC23039 | -0.556 | -0.112 | -2.06 | inactive
dmpd (dampened) | DRSC06092 | 0.796 | -1.75 | 0.448 | inactive
CG33310 | DRSC01897 | -0.273 | 0.765 | -0.341 | inactive
CG33310 | DRSC24914 | -0.561 | -1.67 | 0.718 | inactive
CG13965 | DRSC02307 | 0.00481 | -0.86 | -0.622 | inactive
CG10171 | DRSC09711 | -7.39 | -0.243 | -0.886 | inactive
CG10171 | DRSC26279 | -1.79 | 0.0911 | 1.96 | inactive
CG31199 | DRSC15284 | -0.615 | 0.227 | -0.218 | inactive
HmgD (High mobility group protein D) | DRSC04619 | -0.476 | -8.58 | -2.19 | active
HmgD (High mobility group protein D) | DRSC26171 | -2.57 | -1.5 | -0.949 | inactive
ct (cut) | DRSC18757 | -1.43 | -1.72 | -1.52 | inactive
ct (cut) | DRSC25100 | 0.218 | 1.6 | 2.24 | inactive
CG14805 | DRSC18554 | 0.626 | -4.86 | -2.14 | active
CG10970 | DRSC17772 | 0.867 | 0.459 | 0.314 | inactive
rod (rough deal) | DRSC17047 | 0.506 | -1.57 | 0.969 | inactive
Top3beta (Topoisomerase 3beta) | DRSC18724 | -0.0151 | -1.85 | 0.209 | inactive
CG14837 | DRSC10207 | 0.718 | 0.638 | -2.31 | inactive
Sras (severas) | DRSC11287 | -1.02 | -2.46 | 1.13 | inactive
CG43077 | DRSC40519 | 0.717 | -1.34 | 0.479 | inactive
CG30033 + dare | DRSC22908 | -0.665 | 0.523 | 1.28 | inactive
hop (hopscotch) | DRSC20340 | 0.639 | 1.51 | -3.44 | inactive
hop (hopscotch) | DRSC23334 | 0.545 | -0.211 | -0.987 | inactive
hop (hopscotch) | DRSC26551 | -0.411 | -1.05 | -0.833 | inactive
Cyp313a5 (Cytochrome P450 313a5) | DRSC16628 | -1.26 | 0.58 | 0.562 | inactive
CG1571 | DRSC18068 | 0.752 | 0.775 | -1.57 | inactive
CG7168 | DRSC16208 | -0.479 | -0.803 | -0.216 | inactive
Mef2 (Myocyte enhancer factor 2) | DRSC07468 | -2.07 | -1.17 | 0.77 | inactive
Mef2 (Myocyte enhancer factor 2) | DRSC25554 | 0.887 | 0.481 | 0.982 | inactive
Osi15 (Osiris 15) | DRSC12178 | 0.121 | -2.15 | -1.74 | inactive
CG5111 | DRSC15717 | -1.54 | 0.573 | 0.257 | inactive
bowl | DRSC00805 | -2.06 | 0.183 | -1.21 | inactive
bowl | DRSC28379 | 1.78 | -1.53 | 0.456 | inactive
dre4 | DRSC08714 | -0.207 | -3.31 | -0.569 | inactive
Oxp (Oxpecker) | DRSC06712 | 0.773 | -4.24 | -0.845 | inactive
CG14220 | DRSC19577 | 1.28 | 0.974 | 0.754 | inactive
CG14220 | DRSC26345 | 0.0189 | -1.67 | 0.267 | inactive
Gr47b (Gustatory receptor 47b) | DRSC05275 | 0.281 | 0.0154 | 2.63 | inactive
CG9849 | DRSC04573 | -0.645 | -5.31 | -0.487 | inactive
CNT1 (Concentrative nucleoside transporter 1) | DRSC06082 | -0.529 | -2.33 | -0.0889 | inactive
CNT1 (Concentrative nucleoside transporter 1) | DRSC29671 | 0.302 | -0.0107 | -0.0482 | inactive
Acbp1 (Acyl-CoA binding protein 1) | DRSC03093 | 0.393 | -0.346 | -1.44 | inactive
Acbp1 (Acyl-CoA binding protein 1) | DRSC29718 | -0.295 | 1.21 | -0.506 | inactive
CG43740 | DRSC23059 | -0.936 | -0.426 | 1.8 | inactive
CG43740 | DRSC23267 | -0.964 | -5.09 | 0.957 | inactive
CG6885 | DRSC10740 | -0.0987 | -0.0774 | -2.17 | inactive
Mon1 (Monensin sensitivity 1) | DRSC00336 | -0.446 | -0.839 | -0.512 | inactive
Mon1 (Monensin sensitivity 1) | DRSC26726 | 0.494 | 0.623 | 1.93 | inactive
CG4970 | DRSC02796 | 0.561 | -6.21 | -7.41 | inactive
